Compound potency records, mixed from different reports. Data source: NIAID ChemDB in PubChem.

Common to all: tests in culture; agent: HIV-1; read-out: inhibition

Conditions beyond the fields shown may differ between rows.

Cc1ccc(N(C)C(=O)[C@H](Cc2ccccc2)NC(=O)Cc2cccc3ccccc23)cc1 ; strain: NL4-3 ; method: fluorescence ; dose: 20 µM ; value: 100%
CC(C)[C@H](NC(=O)[C@H](CO)NC(=O)[C@@H](N)CS)C(=O)N[C@H](C(=O)N[C@@H](CS)C(=O)NCC(=O)O)[C@@H](C)O ; strain: BaL ; method: p24 ; cell line: PBMC(PHA STIM.) + PBMC ; dose: 0.132 µM ; value: 0%
COc1ccccc1C1=CC(c2cnc(C(C)C)cn2)SC(N)=N1 ; strain: NL4-3 ; method: p24 / ELISA / antigen ; cell line: TZM-bl ; dose: 10 µg/mL ; value: 17%
O=c1[nH]c(=O)n([C@H]2C[C@H](F)[C@@H](CO)O2)cc1CN1CCCCC1 ; strain: IIIB ; method: ELISA ; cell line: MT-4 ; dose: 100 µM ; value: 0%
Nc1nc(Cl)c2ncn([C@@H]3O[C@H](CO)C[C@@H]3F)c2n1 ; strain: LAI ; method: cytopathic effect / XTT ; cell line: ATH-8 + ATH8 ; dose: 50 µM ; value: 61%
CC(C)[C@H](NC(=O)[C@H](Cc1ccccc1)C[C@H](O)[C@H](Cc1ccccc1)NC(=O)OC(C)(C)C)C(=O)N[C@@H](Cc1ccccc1)C(=O)N1CCOCC1 ; strain: AMS316-23 ; method: RT activity ; cell line: PBL ; dose: 0.5 µM ; value: 92%
c1cc(CNCCCNC2CCCCC2)cc(CNc2nc(N3CCNCC3)nc3nc[nH]c23)c1 ; strain: IIIB ; method: luciferase ; cell line: TZM-bl ; dose: 10 µM ; value: 14%
C=C(C)[C@@H]1CC[C@]2(C(=O)NCCCCCCCC(=O)N[C@@H](CC(C)C)[C@@H](O)CC(=O)O)CC[C@]3(C)[C@H](CC[C@@H]4[C@@]5(C)CC[C@H](O)C(C)(C)[C@@H]5CC[C@]43C)[C@@H]12 ; strain: LAI ; mutations: I84S ; method: syncytia ; cell line: HeLa P4 + HeLa ; dose: 10 µM ; value: 22%
Cc1ccc(-c2ccc3c(c2)C=C(C(=O)Nc2ccc(C[N+](C)(C)C4CCOCC4)cc2)CCC3)cc1 ; strain: Du174 CLADE C ; method: p24 ; cell line: PBMC ; dose: 1 µM ; value: 99.1%
Cc1cccc(C2=CC(c3cnc(C(C)C)cn3)SC(N)=N2)c1 ; strain: NL4-3 ; method: p24 / ELISA / antigen ; cell line: TZM-bl ; dose: 10 µg/mL ; value: 25%
CC1(C)[C@@H](O[C@H]2O[C@H](C(=O)O)[C@@H](O)[C@H](O)[C@H]2O[C@@H]2O[C@H](C(=O)O)[C@@H](O)[C@H](O)[C@H]2O)CC[C@]2(C)[C@H]3C(=O)C=C4[C@@H]5C[C@@](C)(C(=O)O)CC[C@]5(C)CC[C@@]4(C)[C@]3(C)CC[C@@H]12 ; strain: IIIB ; method: cytopathic effect ; cell line: MT-4 ; dose: 60 µM ; value: 40%
CCN(CC)C(=S)S ; strain: LAV ; method: p24 ; cell line: H9 ; dose: 0.0000025 µg/mL ; value: 25%
CC(C)c1cnn2c(NCc3ccc(-c4ccccn4)cc3)nc(N[C@H](CO)C(C)O)nc12 ; method: trypan blue ; cell line: U1 ; dose: 0.05 µM ; value: 50%
Cc1cccc(C)c1OCC(=O)N[C@@H](Cc1ccccc1)[C@H](O)[C@@H](O)[C@@H]1CCCN1C(=O)COc1c(C)cccc1C ; strain: IIIB ; method: MTT ; cell line: MT-2 ; dose: 0.0000001 µM ; value: 13%
N=C1Sc2ccccc2C2=NCCCN12 ; strain: RU132 ; method: MTS ; cell line: PBMC ; dose: 0.53 µM ; value: 90%
COc1ccc(F)c2c(C(=O)C(=O)N3CCN(C(=O)c4ccccc4)CC3)c[nH]c12 ; method: luciferase ; cell line: HeLa + HELA CD4+/CCR5 ; dose: 10 µM ; value: >98%
CC(=O)N(C)c1nc(C(=O)NCc2ccc(F)cc2)c(O)c2ncccc12 ; conditions: 10% FBS ; method: p24 ; cell line: MT-4 ; dose: 0.125 µM ; value: >95%
CC(C)c1cnc(C2C=C(c3ccccc3Cl)N=C(N)S2)cn1 ; strain: NL4-3 ; method: p24 / ELISA / antigen ; cell line: TZM-bl ; dose: 10 µg/mL ; value: 68%
O=c1[nH]c(=O)n([C@H]2C[C@H](F)[C@@H](CO)O2)cc1CN1CCN(Cc2ccccc2)CC1 ; strain: IIIB ; method: ELISA ; cell line: MT-4 ; dose: 100 µM ; value: 0%
CC(C)c1cnc(C2C=C(c3ccccc3F)N=C(N)S2)cn1 ; strain: NL4-3 ; method: p24 / ELISA / antigen ; cell line: TZM-bl ; dose: 10 µg/mL ; value: 70%
NCCSSCCN ; strain: IIIB ; method: p24 ; cell line: PBL ; dose: 50 µM ; value: 47%
C[C@@H]1CN(C(=O)c2cccc(N)c2)CCN1C(=O)C(=O)c1c[nH]c2cccc(F)c12 ; method: luciferase ; cell line: HeLa + HELA CD4+/CCR5 ; dose: 10 µM ; value: >98%
[N-]=[N+]=N[C@H]1C[C@H](n2cc(CN3CCN(CCO)CC3)c(=O)[nH]c2=O)O[C@@H]1CO ; strain: IIIB ; method: ELISA ; cell line: MT-4 ; dose: 100 µM ; value: 0%
C[C@@H]1CN(C(=O)c2ccccc2)CCN1C(=O)C(=O)c1c[nH]c2cc(Cl)ccc12 ; method: luciferase ; cell line: HeLa + HELA CD4+/CCR5 ; dose: 10 µM ; value: 81%
Cc1ccc(C)c2c1NC(=O)C2CC(=O)N[C@@H](Cc1ccccc1)C(=O)N(C)c1ccccc1 ; strain: NL4-3 ; method: fluorescence ; dose: 2 µM ; value: 0%
CC(C)c1cnc(C2C=C(c3ccc(O)cc3)N=C(N)S2)cn1 ; strain: NL4-3 ; method: p24 / ELISA / antigen ; cell line: TZM-bl ; dose: 10 µg/mL ; value: 55%
Cc1cn([C@H]2C[C@H](N=[N+]=[N-])C([C@@H](O)CO)O2)c(=O)[nH]c1=O ; strain: IIIB ; method: cytopathic effect / trypan blue ; cell line: MT-4 ; dose: 200 µg/mL ; value: 0%
c1ccc2c(-c3ccc(-c4ccc(-c5ccc(-c6cccc7ccccc67)s5)c5ccccc45)s3)cccc2c1 ; strain: IIIB ; method: p24 / ELISA / antigen ; cell line: C8166 ; dose: 8 µM ; value: 68.62%
O=c1[nH]c(=O)n([C@H]2C[C@H](F)[C@@H](CO)O2)cc1CN1CCOCC1 ; strain: IIIB ; method: ELISA ; cell line: MT-4 ; dose: 100 µM ; value: 0%
CCN(C(=O)[C@H](Cc1ccccc1)NC(=O)Cc1cccc2ccccc12)c1ccccc1 ; strain: NL4-3 ; method: fluorescence ; dose: 2 µM ; value: 53%
Cc1cn([C@H]2C[C@H](N=[N+]=[N-])[C@@H](CCO)O2)c(=O)[nH]c1=O ; strain: IIIB ; method: cytopathic effect / trypan blue ; cell line: MT-4 ; dose: 200 µg/mL ; value: 0%
N=C1Sc2ccccc2C2=NCCCN12 ; strain: 98IN017 ; method: β-galactosidase ; cell line: TZM-bl ; dose: 1.8 µM ; value: 90%
CSc1ccc(C(=O)N2CCN(C(=O)C(=O)c3c[nH]c4cccc(Cl)c34)CC2)c(S)c1 ; method: luciferase ; cell line: HeLa + HELA CD4+/CCR5 ; dose: 10 µM ; value: 93%
Cc1cn([C@H]2C[C@H](O)[C@@H](C[N+](C)(C)CCO)O2)c(=O)[nH]c1=O ; strain: IIIB ; method: plaque count / syncytia ; cell line: CEM + CEM-SS ; dose: 100 µM ; value: 44%
COc1cccc2[nH]cc(C(=O)C(=O)N3CCN(C(=O)c4ccccc4)C[C@@H]3C)c12 ; method: luciferase ; cell line: HeLa + HELA CD4+/CCR5 ; dose: 10 µM ; value: >98%
CC(C)[C@H](NC(=O)[C@H](CO)NC(=O)[C@@H](N)CSSCC(=O)O)C(=O)N[C@H](C(=O)N[C@@H](CSSCC(=O)O)C(=O)NCC(=O)O)[C@@H](C)O ; strain: BaL ; method: p24 ; cell line: PBMC(PHA STIM.) + PBMC ; dose: 0.132 µM ; value: 30%
Nc1nc(N)c2ncn([C@@H]3O[C@H](CO)C[C@@H]3F)c2n1 ; strain: LAI ; method: cytopathic effect / XTT ; cell line: ATH-8 + ATH8 ; dose: 100 µM ; value: 40%
Cc1ccc(N(C)C(=O)[C@H](Cc2ccccc2)NC(=O)CN2C(=O)NC3(CCCc4ccccc43)C2=O)cc1 ; strain: NL4-3 ; method: fluorescence ; dose: 20 µM ; value: 41%
CC(C)c1cnc(C2C=C(c3ccc(Cl)cc3)N=C(N)S2)cn1 ; strain: NL4-3 ; method: p24 / ELISA / antigen ; cell line: TZM-bl ; dose: 10 µg/mL ; value: 69%
CN(C(=O)[C@H](Cc1ccccc1)NC(=O)Cc1cccc2ccccc12)c1ccccc1 ; strain: NL4-3 ; method: fluorescence ; dose: 20 µM ; value: 100%
CC(C)c1cnc(C2C=C(c3ccccc3)N=C(N)S2)cn1 ; strain: NL4-3 ; method: p24 / ELISA / antigen ; cell line: TZM-bl ; dose: 10 µg/mL ; value: 12%
O=C(C(=O)N1CCN(C(=O)c2ccco2)CC1)c1c[nH]c2cccc(F)c12 ; method: luciferase ; cell line: HeLa + HELA CD4+/CCR5 ; dose: 10 µM ; value: >98%
Cc1cccc2c1NC(=O)C2CC(=O)N[C@@H](Cc1ccccc1)C(=O)N(C)c1cccc(Cl)c1 ; strain: NL4-3 ; method: fluorescence ; dose: 2 µM ; value: 14%

Repeating the final 5 entries:

SMILES | strain | conditions | mutations | method | cell line | dose | value
CC(C)c1cnc(C2C=C(c3ccc(Cl)cc3)N=C(N)S2)cn1 | NL4-3 | - | - | p24 / ELISA / antigen | TZM-bl | 10 µg/mL | 69%
CN(C(=O)[C@H](Cc1ccccc1)NC(=O)Cc1cccc2ccccc12)c1ccccc1 | NL4-3 | - | - | fluorescence | - | 20 µM | 100%
CC(C)c1cnc(C2C=C(c3ccccc3)N=C(N)S2)cn1 | NL4-3 | - | - | p24 / ELISA / antigen | TZM-bl | 10 µg/mL | 12%
O=C(C(=O)N1CCN(C(=O)c2ccco2)CC1)c1c[nH]c2cccc(F)c12 | - | - | - | luciferase | HeLa + HELA CD4+/CCR5 | 10 µM | >98%
Cc1cccc2c1NC(=O)C2CC(=O)N[C@@H](Cc1ccccc1)C(=O)N(C)c1cccc(Cl)c1 | NL4-3 | - | - | fluorescence | - | 2 µM | 14%

Inhibition is in % at the dose shown (toxicity tests: loss of growth or viability). An empty or dashed field is not shown.